Laboratory results from patent publication US20230398125A1, “TREATING HEPATITIS” (Albireo AB, priority 2022, published 2023).

Assay: Blood human albumin concentration in HBV-infected PXB mice
Assay type: in vivo

CCCCC1CN(c2ccccc2)c2cc(SC)c(O/C=C(\F)C(=O)O)cc2S(=O)(=O)N1C (stereo not shown) [Compound 1, (Z)-3-((3-butyl-2-methyl-7-(methylthio)-1,1-dioxido-5-phenyl-2,3,4,5-tetrahydro-1,2,5-benzothiadiazepin-8-yl)oxy)-2-fluoroacrylic acid]
blood concentration of human albumin (10 mg/kg, Day 14): 10.8 ± 0.9 mg/mL | blood concentration of human albumin (10 mg/kg, baseline): 10.8 ± 1.0 mg/mL | blood concentration of human albumin (30 mg/kg, Day 14): 11.3 ± 1.2 mg/mL | blood concentration of human albumin (30 mg/kg, baseline): 10.6 ± 1.5 mg/mL
